# Test results taken from PubChem BioAssay AID504832 (National Center for Advancing Translational Sciences (NCATS), 2011).
# The list shows a part of the results, in another mix than the full data. Inconclusive results are not listed. Activity calls are given as the source filed them. Calls come from the whole dose curve; as a rule, active = well fitted inhibition curve with a large enough effect; inconclusive = small, poorly fitted or top-dose-only effect, or another doubt; inactive = no such curve, though single readings can be large or run the other way.
# Assay: Primary qHTS for delayed death inhibitors of the malarial parasite plastid, 48 hour incubation
# Conditions: P. falciparum luciferase growth in erythrocytes
# Text: The goal of this screen is to discover new antimalarial compounds that act by inhibiting the development of the apicoplast in the malarial parasite Plasmodium falciparum. The biochemical processes that make this organelle essential for erythrocytic stage parasites are not well understood. However, antibiotics such as azithromycin and tetracycline, which target the apicoplast translational machinery, have a potent antimalarial effect.
# We have developed a cell-based assay that measures parasite growth based on the expression of an integrated copy of a firefly luciferase reporter. To detect small molecules that cause this "delayed death" phenotype, erythrocytes infected with the luciferase-expressing parasites were incubated with compounds for either one or two generations, corresponding to 48 and 96 hours, respectively. Compounds that inhibit parasite growth in the second generation, but not the first, should be enriched in antimalarials that target the apicoplast. Growth inhibition is detected by a decrease in luciferase activity.
# Assay Provider: David Fidock and Eric Ekland, Columbia University
# Keywords: NIH Roadmap, MLPCN, MLI, MLSMR, qHTS, NCGC, qHTS, malaria, luciferase, viability
# Four microliters of culture medium (RPMI 1640 with 0.5% w/v Albumax (GIBCO), 24 mM sodium bicarbonate and 10 ug/mL gentamycin) were dispensed by a Multi-drop Combi into white solid 1536-well plates (Grenier) and 23 nL compound was added by a pin tool. Four microliters of infected erythrocytes (2% hematocrit, 0.1% parasitemia final concentration) in culture medium were dispensed and the plates incubated for 48 hours at 37 C in 5% CO2. Two microliters of luciferase detection reagent was added and luminescence was detected by a ViewLux (PerkinElmer) reader.
# Potency is the fitted concentration of half-maximal effect.
row,Compound,Potency
1,CN(C)c1cccc(C(=O)NCC2(N3CCCCC3)CCCCC2)c1,active: 3.7 µM
2,CCCCOc1ccc(C(=O)NCC2(N3CCOCC3)CCCCC2)cc1,active: 13.1 µM
3,O=C(NCC1(N2CCCCC2)CCCCC1)c1ccc(Cl)s1,active: 10.4 µM
4,COc1cccc(C(=O)N(c2cc(C)cc(C)c2)C2CCN(C(=O)OC(C)(C)C)CC2)c1,active: 10.4 µM
5,CC(C)(C)OC(=O)N1CCC(N(C(=O)c2ccccc2)c2ccc(Cl)cc2)CC1,active: 11.7 µM
